PubChem BioAssay AID1224833 | University of Georgia, 2016
Test: 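Human genes whose knock-down alters rotavirus replication in monkey cells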 (primary screen). System: monkey MA104 kidney cells. Reagent: siRNA pool against human genes, 50 nM. Timing: 48 h knock-down before infection; read 24 h after infection. Challenge: infection with rotavirus strain RV3 two days after transfection; infectious dose for this stage not given. Measured: 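Rotavirus antigen per well by fluorescent immunoassay, normalised to non-targeting control wells on each plate and given as a standard z-score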. Scale: z-score vs non-targeting control: higher = more rotavirus replication than with non-targeting control. Rule for the call: In these data the active calls have z-score vs non-targeting control at about -1 or lower, or at about 1 or higher. Calls: active = z-score beyond 1 either way; inactive = z-score within 1 of zero.
The deposit covers about 12,000 reagents; below is a random part of them. About 5,600 of them (46%) count as active. 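Active calls cover z-scores past 1 in both directions, so they include lowered as well as raised rotavirus replication.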

DNTTIP2 (deoxynucleotidyltransferase terminal interacting protein 2) [SID329578776]
- z-score vs non-targeting control: 0.151
- activity call: inactive

TMEM106A (transmembrane protein 106A) [SID329582184]
- z-score vs non-targeting control: 0.909
- activity call: inactive

LRRC17 (leucine rich repeat containing 17) [SID329577043]
- z-score vs non-targeting control: -0.804
- activity call: inactive

MIER2 (MIER family member 2) [SID329579311]
- z-score vs non-targeting control: -0.0586
- activity call: inactive

BCL7B (BAF chromatin remodeling complex subunit BCL7B) [SID329576512]
- z-score vs non-targeting control: 1.22
- activity call: active

BTG1 (BTG anti-proliferation factor 1) [SID329572949]
- z-score vs non-targeting control: 0.643
- activity call: inactive

ZNF705A (zinc finger protein 705A) [SID329584565]
- z-score vs non-targeting control: 1.02
- activity call: active

PLAU (plasminogen activator, urokinase) [SID329574850]
- z-score vs non-targeting control: 3.53
- activity call: active

TPD52 (tumor protein D52) [SID329575699]
- z-score vs non-targeting control: 0.518
- activity call: inactive

TMEM132A (transmembrane protein 132A) [SID329579497]
- z-score vs non-targeting control: 2.57
- activity call: active

EPS15L1 (epidermal growth factor receptor pathway substrate 15 like 1) [SID329580429]
- z-score vs non-targeting control: -0.385
- activity call: inactive

ENOSF1 (enolase superfamily member 1) [SID329579747]
- z-score vs non-targeting control: -0.687
- activity call: inactive

IVL (involucrin) [SID329574202]
- z-score vs non-targeting control: 0.79
- activity call: inactive

AHSA1 (activator of HSP90 ATPase activity 1) [SID329577264]
- z-score vs non-targeting control: 0.525
- activity call: inactive

AVP (arginine vasopressin) [SID329572883]
- z-score vs non-targeting control: 1.02
- activity call: active

SREK1 (splicing regulatory glutamic acid and lysine rich protein 1) [SID329582837]
- z-score vs non-targeting control: 0.692
- activity call: inactive

DIPK1B (divergent protein kinase domain 1B) [SID329582758]
- z-score vs non-targeting control: -0.67
- activity call: inactive

SLC25A12 [SID329576190]
- z-score vs non-targeting control: -1.1
- activity call: active

METTL4 (methyltransferase 4, N6-adenosine) [SID329580709]
- z-score vs non-targeting control: -0.626
- activity call: inactive

RPS21 (ribosomal protein S21) [SID329575201]
- z-score vs non-targeting control: 1
- activity call: inactive

FKBP14 (FKBP prolyl isomerase 14) [SID329579532]
- z-score vs non-targeting control: -0.793
- activity call: inactive

CABYR (calcium binding tyrosine phosphorylation regulated) [SID329578360]
- z-score vs non-targeting control: 0.29
- activity call: inactive

MAGEC3 (MAGE family member C3) [SID329582771]
- z-score vs non-targeting control: -0.555
- activity call: inactive

SHISA3 (shisa family member 3) [SID329583071]
- z-score vs non-targeting control: -0.82
- activity call: inactive

IMMT (inner membrane mitochondrial protein) [SID329577470]
- z-score vs non-targeting control: -0.334
- activity call: inactive

RPE (ribulose-5-phosphate-3-epimerase) [SID329575149]
- z-score vs non-targeting control: -1.11
- activity call: active

ZNF589 (zinc finger protein 589) [SID329579050]
- z-score vs non-targeting control: -0.164
- activity call: inactive

EML1 (EMAP like 1) [SID329573529]
- z-score vs non-targeting control: -0.211
- activity call: inactive

FJX1 (four-jointed box kinase 1) [SID329578149]
- z-score vs non-targeting control: -1.45
- activity call: active

8 of these entries, reformatted:
target,PubChem SID,z-score vs non-targeting control,activity call
TMEM132A (transmembrane protein 132A),SID329579497,2.57,active
EPS15L1 (epidermal growth factor receptor pathway substrate 15 like 1),SID329580429,-0.385,inactive
ENOSF1 (enolase superfamily member 1),SID329579747,-0.687,inactive
IVL (involucrin),SID329574202,0.79,inactive
AHSA1 (activator of HSP90 ATPase activity 1),SID329577264,0.525,inactive
AVP (arginine vasopressin),SID329572883,1.02,active
SREK1 (splicing regulatory glutamic acid and lysine rich protein 1),SID329582837,0.692,inactive
DIPK1B (divergent protein kinase domain 1B),SID329582758,-0.67,inactive

The listing continues.
FEZF2 (FEZ family zinc finger 2) [SID329579555]
- z-score vs non-targeting control: -0.973
- activity call: inactive

ZDHHC18 (zDHHC palmitoyltransferase 18) [SID329581556]
- z-score vs non-targeting control: -0.403
- activity call: inactive

RDX (radixin) [SID329575105]
- z-score vs non-targeting control: -0.513
- activity call: inactive

NF1 (neurofibromin 1) [SID329574602]
- z-score vs non-targeting control: 2.53
- activity call: active

ATF7 (activating transcription factor 7) [SID329577485]
- z-score vs non-targeting control: -1.87
- activity call: active

TNS4 (tensin 4) [SID329581790]
- z-score vs non-targeting control: 0.49
- activity call: inactive

THOC2 (THO complex subunit 2) [SID329580200]
- z-score vs non-targeting control: -3.7
- activity call: active

PRELID3A (PRELI domain containing 3A) [SID329577298]
- z-score vs non-targeting control: -0.423
- activity call: inactive

CHCHD3 (coiled-coil-helix-coiled-coil-helix domain containing 3) [SID329579469]
- z-score vs non-targeting control: 1.21
- activity call: active

SPIN2B (spindlin family member 2B) [SID329584630]
- z-score vs non-targeting control: -0.621
- activity call: inactive

PPFIBP1 (PPFIB scaffold protein 1) [SID329576136]
- z-score vs non-targeting control: 0.0455
- activity call: inactive

GALNT8 (polypeptide N-acetylgalactosaminyltransferase 8) [SID329578371]
- z-score vs non-targeting control: 3.23
- activity call: active

ESX1 (ESX homeobox 1) [SID329581233]
- z-score vs non-targeting control: -0.184
- activity call: inactive

SGO1 (shugoshin 1) [SID329583050]
- z-score vs non-targeting control: 1.48
- activity call: active

PEBP4 (phosphatidylethanolamine binding protein 4) [SID329583125]
- z-score vs non-targeting control: 0.499
- activity call: inactive

CDH3 (cadherin 3) [SID329573104]
- z-score vs non-targeting control: 0.539
- activity call: inactive

CIMIP5 (ciliary microtubule inner protein 5) [SID329582667]
- z-score vs non-targeting control: 1.62
- activity call: active

PYCR2 (pyrroline-5-carboxylate reductase 2) [SID329578719]
- z-score vs non-targeting control: -1.91
- activity call: active
